Anti-infective test results gathered from many reports (values: NIAID ChemDB through PubChem).

Shared fields: cytotoxicity tests; cell line: VERO; read-out: CC50

Blank or dashed fields: not listed here. Lines come from different laboratories, so protocols vary. CCn: concentration that lowers growth or viability of the cells by n%.

structure	read by	value
O=C(Nc1ccn[nH]1)c1ccc([N+](=O)[O-])o1	-	7.29 µg/mL
Clc1ccc(/C(Cn2ccnc2)=N/OCc2cccc3ccccc23)cc1	-	3 µg/mL
COc1cccc([C@H](c2cc3cc(Br)ccc3nc2OC)[C@@](O)(CCN(C)C)c2cnc(C)c(C)c2)c1F	-	>10 µg/mL
CC(=O)O[C@H]1C[C@H](n2cc(C)c(=O)[nH]c2=O)O[C@@H]1COS(=O)(=O)NC(=O)O[C@H]1O[C@H](COC(=O)c2ccccc2)[C@@H](OC(=O)c2ccccc2)[C@H](OC(=O)c2ccccc2)[C@H]1OC(=O)c1ccccc1	-	150 µg/mL
COc1ccc(N(C)C(=O)c2ccc([N+](=O)[O-])o2)cc1	-	25.25 µg/mL
Clc1ccc(/C(Cn2ccnc2)=N/OCc2ccccc2)cc1	-	64 µg/mL
COc1cccc([C@H](c2cc3cc(C#N)ccc3nc2OC)[C@@](O)(CCN(C)C)c2cnc(C)c(C)c2)c1F	-	>10 µg/mL
CC(C)OC1[C@H](n2ccc(=O)[nH]c2=O)O[C@H](COS(=O)(=O)NC(=O)N[C@@H]2O[C@H](COC(=O)c3ccccc3)[C@@H](OC(=O)c3ccccc3)[C@H](OC(=O)c3ccccc3)[C@H]2OC(=O)c2ccccc2)[C@H]1OC(C)C	-	300 µg/mL
O=C(Nc1cccc(Br)c1)c1ccc([N+](=O)[O-])o1	-	15.37 µg/mL
COc1cccc([C@H](c2cc3cc(Br)ccc3nc2OC)[C@@](O)(CCN(C)C)c2ncc(C)cc2C)c1F	-	>10 µg/mL
Cc1csc(C(=O)/C=C/c2cc3cc(C)ccc3nc2Cl)c1	MTS	64.2 µM
COc1cccc([C@H](c2cc3cc(Br)ccc3nc2OC)[C@@](O)(CCN(C)C)c2cnc(C)c(C)c2)c1OC	-	>10 µg/mL
C(=C\c1ccccc1)/CO/N=C(\Cn1ccnc1)c1ccccc1	-	6 µg/mL
Cc1cn([C@H]2C[C@H](O)[C@]3(CO)C[C@H]23)c(=O)[nH]c1=O	-	>100 µM
COc1ccc2nc(Cl)c(/C=C/C(=O)c3ccc(C)s3)cc2c1	MTS	45.9 µM
COc1cccc([C@H](c2cc3cc(C#N)ccc3nc2OC)[C@@](O)(CCN(C)C)c2ccc(C)nc2)c1OC	-	>10 µg/mL
CC(C)O[C@@H]1[C@H](OC(C)C)[C@@H](COS(=O)(=O)NC(=O)O[C@H]2O[C@H](COC(=O)c3ccccc3)[C@@H](OC(=O)c3ccccc3)[C@H](OC(=O)c3ccccc3)[C@H]2OC(=O)c2ccccc2)O[C@H]1n1ccc(=O)[nH]c1=O	-	100 µg/mL
Cc1ccc2nc(Cl)c(/C=C/C(=O)c3ccc(C)s3)cc2c1	MTS	69.1 µM
CC(C)O[C@@H]1[C@H](OC(C)C)[C@@H](COS(=O)(=O)NC(=O)O[C@H]2C[C@@H](OC(=O)c3ccccc3)[C@H](OC(=O)c3ccccc3)[C@@H](COC(=O)c3ccccc3)O2)O[C@H]1n1ccc(=O)[nH]c1=O	-	100 µg/mL
Fc1ccc(/C(Cn2ccnc2)=N\OCc2ccc(-c3ccccc3)cc2)cc1	-	6 µg/mL
COc1ccc(CNC(=O)c2ccc([N+](=O)[O-])o2)c(OC)c1	-	5.38 µg/mL
COc1ccc([C@](O)(CCN(C)C)[C@@H](c2cc3cc(Br)ccc3nc2OC)c2cccc(OC)c2F)cn1	-	>10 µg/mL
Cc1ccc2nc(Cl)c(/C=C/C(=O)c3ccsc3)cc2c1	MTS	4.8 µM
Clc1ccc(/C(Cn2ccnc2)=N\OCc2ccccc2)c(Cl)c1	-	32 µg/mL
COc1cccc([C@H](c2cc3cc(C#N)ccc3nc2OC)[C@@](O)(CCN(C)C)c2cncc(C)c2)c1OC	-	>10 µg/mL
COc1ccc2nc(Cl)c(/C=C/C(=O)c3ccc(Br)s3)cc2c1	MTS	13.2 µM
CC(=O)O[C@H]1C[C@H](n2cc(C)c(=O)[nH]c2=O)O[C@@H]1COS(=O)(=O)NC(=O)O[C@H]1O[C@H](COCc2ccccc2)[C@@H](OCc2ccccc2)[C@H](OCc2ccccc2)[C@H]1OCc1ccccc1	-	75 µg/mL
Fc1ccc(/C(Cn2ccnc2)=N\OC/C=C/c2ccccc2)cc1	-	6 µg/mL
CC(=O)N[C@H]1[C@@H](OC(=O)NS(=O)(=O)OC[C@H]2O[C@@H](n3ccc(=O)[nH]c3=O)[C@H](OC(C)C)[C@@H]2OC(C)C)O[C@H](COC(=O)c2ccccc2)[C@@H](OC(=O)c2ccccc2)[C@@H]1OC(=O)c1ccccc1	-	100 µg/mL
O=C(Nc1cccc(F)c1)c1ccc([N+](=O)[O-])o1	-	9.29 µg/mL
COc1cc([C@](O)(CCN(C)C)[C@@H](c2cc3cc(Br)ccc3nc2OC)c2cccc(OC)c2F)cnc1OC	-	>10 µg/mL
Nc1nc(=O)n([C@@H]2O[C@H](CO)[C@@H](CO)[C@@H]2F)cc1F	-	≥100 µM

A second listing of 3 rows from above:

| structure | read by | value |
|---|---|---|
| Nc1nc(=O)n([C@@H]2O[C@H](CO)[C@@H](CO)[C@@H]2F)cc1F | - | ≥100 µM |
| COc1cccc([C@H](c2cc3cc(C#N)ccc3nc2OC)[C@@](O)(CCN(C)C)c2cnc(C)c(C)c2)c1F | - | >10 µg/mL |
| Clc1ccc(/C(Cn2ccnc2)=N/OCc2cccc3ccccc23)cc1 | - | 3 µg/mL |